Pooled drug test results. Numbers come from NIAID ChemDB, via PubChem.

Common to all: tests in culture; organism: HIV-1; cells: PBMC; endpoint: EC50

Blank or dashed fields: not listed here. Rows are shuffled and stem from different studies. ECn is the concentration giving n% inhibition of infection, replication or growth.

Cc1cn([C@H]2C[C@H](N=[N+]=[N-])[C@@H](CO)O2)c(=O)[nH]c1=O ; strain: IIIB ; method: p24 / ELISA ; result: 0.026 µM
NC(=O)c1cc2c(-c3ccc4c(c3)CCO4)cncc2s1 ; strain: BaL ; method: p24 / ELISA ; result: 0.0488 µM
Cc1cc2c(C(C)C)c(O)c(O)c(C=O)c2c(O)c1-c1c(C)cc2c(C(C)C)c(O)c(O)c(C=O)c2c1O ; strain: LAV ; result: 1.7 µM
COC(=O)[C@H](C)NP(=O)(OC[C@H]1O[C@@H](n2cc(C)c(=O)[nH]c2=O)C[C@@H]1N=[N+]=[N-])Oc1ccc(Br)cc1 ; method: p24 ; result: 0.005 µM
Cc1cn([C@H]2C=C[C@@H](CO)O2)c(=O)[nH]c1=O ; strain: BaL ; method: p24 ; result: 0.047 µM
CC(C)[C@H](NC(=O)c1ccc2ccccc2n1)C(=O)N[C@@H](Cc1ccccc1)[C@H](O)CN1CC[C@@H](OCc2ccncc2)C[C@H]1C(=O)NC(C)(C)C ; strain: Wg3522 ; method: p24 ; result: 0.015 µM
Cc1cn([C@@H]2C=C[C@H](CO)O2)c(=O)[nH]c1=O ; strain: LAV ; method: RT activity ; result: >100 µM
CC(C)(C)NC(=O)[C@@H]1C[C@@H]2CCCC[C@@H]2CN1C[C@@H](O)[C@H](Cc1ccccc1)NC(=O)[C@H](CC(N)=O)NC(=O)c1ccc2ccccc2n1 ; strain: 006 ; method: p24 ; result: 0.0248 µM
Cc1cn([C@@H]2CS[C@@H](CO)O2)c(=O)nc1N ; strain: LAV ; method: RT activity ; result: 100 µM
Nc1ccn([C@H]2S[C@@H](CO)C=C2F)c(=O)n1 ; strain: xxBRU ; result: <1.4 µM
CC(C)c1cc2c(c(O)c1O)[C@@]1(C(=O)O)CCCC(C)(C)C1CC2 ; strain: clinical isolate 1(ERS104pre WT X4) ; changes: PR-L63P ; result: 0.018 µM
Cc1cc2c(C(C)C)c(O)c(O)c(C=N)c2c(O)c1-c1c(C)cc2c(C(C)C)c(O)c(O)c(C=N)c2c1O ; strain: LAV ; result: 3.4 µM
Cn1cc(N)cc1C(=O)Nc1cc(C(=O)Nc2ccc3cc(S(=O)(=O)O)cc(S(=O)(=O)O)c3c2)n(C)c1 ; strain: BaL ; method: cytopathic effect / XTT ; result: 1.1 µM
C[C@]12CC[C@H](O)C[C@@H]1CC[C@@H]1[C@@H]2CC[C@]2(C)C(=O)[C@H](Br)C[C@@H]12 ; strain: LAV ; method: RT activity ; result: 3.7 µM
CN[C@H]1C[C@@H](N)[C@H](O)[C@@H](O[C@@H]2O[C@H](CO)[C@H](O)[C@@H]3OC4(O[C@H]23)O[C@H]([C@@H](N)CO)[C@H](O)[C@@H](O)[C@H]4O)[C@@H]1O ; strain: 92HT593 ; method: p24 ; result: ~4 µM
C#C[C@@]1(CO)C=C[C@H](n2cc(C)c(=O)[nH]c2=O)O1 ; strain: IIIB ; method: p24 ; result: 0.0019 µM
Cc1cn([C@H]2C[C@@H](CCl)[C@@H](CO)O2)c(=O)[nH]c1=O ; strain: LAV ; method: RT activity ; result: >100 µM
Cc1cn([C@H]2C[C@H](F)[C@@H](CO)O2)c(=O)[nH]c1=O ; strain: 4718 ; method: ELISA ; result: 0.005 µM
O=C(O)c1cc(O)cc(O)c1N=Nc1ccc(/C=C/c2ccc(N=Nc3c(O)cc(O)cc3C(=O)O)cc2S(=O)(=O)O)c(S(=O)(=O)O)c1 ; strain: CLADE D ; method: p24 ; result: 10.1 µg/mL
COC(=O)N[C@H](C(=O)N[C@@H](Cc1ccccc1)[C@@H](O)CN(Cc1ccc(-c2ccccn2)cc1)NC(=O)[C@@H](NC(=O)OC)C(C)(C)C)C(C)(C)C ; strain: ERS104pre ; changes: L63P ; method: p24 / luminescence ; result: 0.0025 µM
Cc1cn([C@H]2C[C@H](N=[N+]=[N-])[C@@H](CO)O2)c(=O)[nH]c1=O ; strain: Clinical isolate ; changes: WAN ; method: ELISA ; result: 0.0165 µM
CN(CC(CCN1CCC2(CC1)CS(=O)c1ccccc12)c1ccccc1)S(=O)(=O)c1ccccc1 ; strain: M-tropic YU-2 ; method: p24 / antigen ; result: <0.8 µM
Nc1ccn([C@@H]2O[C@H](CO)C=C2F)c(=O)n1 ; strain: xxBRU ; result: <8 µM
O=c1[nH]cnc2c1ncn2[C@@H]1CS[C@@H](CO)O1 ; strain: LAV ; method: RT activity ; result: 100 µM
Cc1cc(Cl)nc(C)c1C(=O)NCC[C@@H](C)N1CCC(N(Cc2ccsc2)C(=O)NCCCC(=O)O)CC1 ; method: p24 / ELISA ; result: 0.69 µM
CN(C[C@@H](CCN1CCC2(CC1)CS(=O)c1ccccc12)c1ccc(Cl)c(Cl)c1)S(=O)(=O)c1ccccc1 ; strain: M-tropic YU-2 ; method: p24 / antigen ; result: <10 µM
C[C@@H]1O[C@@H](OC[C@H]2O[C@@H](Oc3c(-c4ccc(OS(=O)(=O)O)c(OS(=O)(=O)O)c4)oc4cc(OS(=O)(=O)O)cc(OS(=O)(=O)O)c4c3=O)[C@H](OS(=O)(=O)O)[C@@H](OS(=O)(=O)O)[C@@H]2OS(=O)(=O)O)[C@H](OS(=O)(=O)O)[C@H](OS(=O)(=O)O)[C@H]1OS(=O)(=O)O ; strain: ADAM R5 ; method: p24 ; result: 4.5 µM
COc1cc(O)cc(C(C)(C)CCCC(C)C)c1 ; method: p24 / ELISA / antigen ; result: 39.9 µM
O=C1c2ccccc2C2(c3ccccc3)SCCN12 ; strain: D148/88 ; method: p24 / ELISA ; result: 0.64 µM
Nc1nc(NC2CC2)c2ncn([C@H]3C=C[C@@H](CO)C3)c2n1 ; strain: Clinical isolates ; method: p24 ; result: 0.393 µM
Cc1nnc(C(C)C)n1C1C[C@H]2CC[C@@H](C1)N2CC[C@H](NC(=O)C1CCC(F)(F)CC1)c1ccccc1 ; strain: CC1/85 maraviroc-resistant ; method: p24 / ELISA ; result: >20 µg/mL
Cc1cc2c(C(C)C)c(O)c(O)c(C=Nc3ccccc3)c2c(O)c1-c1c(C)cc2c(C(C)C)c(O)c(O)c(C=Nc3ccccc3)c2c1O ; strain: LAV ; result: 91.5 µM
Nc1ccn([C@H]2CC[C@@H](CO)O2)c(=O)n1 ; method: p24 / ELISA / antigen ; result: 0.0876 µM
CCOCn1c([Se]c2ccccc2)c(F)c(=O)[nH]c1=O ; strain: LAV ; method: RT activity ; result: 18.2 µM
Nc1ncnc2c1ncn2[C@H]1CC[C@](OCP(=O)(O)O)(C(F)(F)F)C1 ; strain: LAI ; method: MTT ; result: 8.4 µM
Nc1nc(N)c2ncn([C@H]3CO[C@@H](CO)O3)c2n1 ; strain: IIIB X4 ; result: 1.93 µM
Cc1cn([C@H]2C[C@@H](CO)[C@@H](COC(c3ccccc3)(c3ccccc3)c3ccccc3)O2)c(=O)[nH]c1=O ; strain: LAV ; method: RT activity ; result: 3.3 µM
COc1cc(OC)nc(N2C(=O)CSC2c2c(F)cccc2Cl)n1 ; strain: VB51 ; method: p24 / ELISA ; result: 0.002 µg/mL
CC(C)CN(C[C@@H](O)[C@H](Cc1ccc(F)cc1)NC(=O)O[C@H]1CCO[C@H]2OCC[C@H]21)S(=O)(=O)c1ccc2nc(NC(C)C)sc2c1 ; strain: 97ZA003 ; method: p24 / luminescence ; result: 0.0021 µM
Nc1ccn([C@H]2CO[C@@H](CO)S2)c(=O)n1 ; strain: HXB2D ; method: p24 ; result: 0.1 µM
CC(C)Nc1cccnc1N1CCN(C(=O)c2cc3cc(NS(C)(=O)=O)ccc3[nH]2)CC1 ; strain: BaL ; method: p24 ; result: 0.03 µM
Nc1nc(=O)n([C@@H]2CS[C@@H](CO)O2)cc1Cl ; strain: LAV ; method: RT activity ; result: 100 µM
Nc1ncnc2c1ncn2[C@@H]1CC[C@H](CO)O1 ; strain: LAV ; method: RT activity ; result: 8.2 µM
CN(C[C@@H](CCN1CCC2(CC1)CS(=O)c1ccccc12)c1cccc(Cl)c1)S(=O)(=O)c1ccccc1 ; strain: M-tropic YU-2 ; method: p24 / antigen ; result: <0.8 µM
Nc1ccn([C@H]2CC[C@@H](CO)O2)c(=O)n1 ; strain: HxB2D(RT-D67G) ; changes: RT-D67G ; method: p24 ; result: 0.24 µM
C[n+]1ccc(C2=C3C=CC(=N3)C(c3ccc(-c4ccccc4)cc3)=C3C=CC(=C(c4cc[n+](C)cc4)C4=NC(=C(c5ccc(-c6ccccc6)cc5)C5=CC=C2[NH2+]5)C=C4)[NH2+]3)cc1.[Cl-] ; strain: LAV ; method: RT activity ; result: <1 µM
Nc1nc(=O)n([C@H]2CO[C@@H](CO)S2)cc1F ; strain: HXB2D (RT-K65R) ; changes: RT-K65R ; method: p24 ; result: 6.5 µM
CSCSc1nc(Cc2cc(C)cc(C)c2)c(C(C)C)c(=O)[nH]1 ; strain: IIIB ; method: p24 ; result: 0.01 µM
Cc1cn([C@H]2C[C@H](N=[N+]=[N-])[C@@H](CO)O2)c(=O)[nH]c1=O ; method: p24 ; result: 0.006 µM
COC(=O)[C@H](C)NP(=O)(OC[C@@H]1C=C[C@H](n2cc(C)c(=O)[nH]c2=O)O1)Oc1ccc(Br)cc1 ; strain: T156-3 NRTI resistant ; changes: RT-M41L E44D D67N T69D L210W T215Y ; method: p24 ; result: 0.0033 µM
Nc1nc(=O)n([C@@H]2CO[C@H](CO)S2)cc1F ; strain: HXB2D (RT-K65R) ; changes: RT-K65R ; method: p24 ; result: 11.5 µM
Nc1nc(NC2CC2)c2ncn([C@H]3C=C[C@@H](CO)O3)c2n1 ; strain: BRU PITT.(RT-M184V) ; changes: RT-M184V ; method: cytopathic effect / MTT ; result: 2.2 µM
CCOCn1c([Se]c2ccccc2)c(C)c(=O)[nH]c1=O ; strain: LAV ; method: RT activity ; result: 0.64 µM
C=C(C)[C@]12C[C@@H](COC(=O)c3ccccc3)[C@@]34O[C@]5(O[C@@H]1[C@@H]3[C@@H]1O[C@]1(CO)[C@@H](O)[C@@]1(O)[C@H]4[C@H]([C@H](C)[C@@H]1OC(=O)c1ccccc1)[C@H](C)CCCCCC[C@H]5O)O2 ; strain: JR-CSF ; method: p24 / ELISA ; result: 0.0000205 µM
Cc1c(O)cccc1C(=O)N[C@@H](CSc1ccccc1)[C@H](O)CN1C[C@H]2CCCC[C@H]2C[C@H]1C(=O)NC(C)(C)C ; strain: BaL ; method: p24 ; result: 0.0251 µM
O=S(=O)(O)c1ccc(Cl)c(-c2c3nc(c(-c4c(Cl)ccc(S(=O)(=O)O)c4Cl)c4ccc([n-]4)c(-c4c(Cl)ccc(S(=O)(=O)O)c4Cl)c4ccc([n-]4)c(-c4c(Cl)ccc(S(=O)(=O)O)c4Cl)c4nc2C=C4)C=C3)c1Cl.[Na+] ; strain: LAV ; method: RT activity ; result: <1 µM
Cc1cn([C@H]2C[C@H](N=[N+]=[N-])[C@@H](CO)O2)c(=O)[nH]c1=O ; strain: BaL ; method: cytopathic effect / XTT ; result: 0.6 µM
CCc1cc(NCc2nc3c(Cl)ccc(Cl)c3o2)c(=O)[nH]c1C ; strain: Clinical isolate (RT K103R D67N K70R K219Q) ; changes: RT-D67N K70R K103R K219Q ; method: p24 ; result: <0.4 µM
Cc1cn([C@H]2C[C@H](N=[N+]=[N-])[C@@H](CO)O2)c(=O)[nH]c1=O ; strain: 4755-5 NRTI resistant recombinant ; changes: RT-M41L E44D D67N T69D Y118I M184V L210W T215Y ; method: p24 ; result: 0.165 µM
CCNc1cccnc1N1CCN(C(=O)c2cc3cc(OC)ccc3[nH]2)CC1 ; strain: BaL ; changes: RT-V106A ; method: p24 ; result: 15.3 µM
Cc1cn([C@H]2C[C@@H](CI)[C@@H](CO)O2)c(=O)[nH]c1=O ; strain: LAV ; method: RT activity ; result: >100 µM
CC[C@H](C)C(=O)O[C@H]1C[C@@H](C)C=C2C=C[C@H](C)[C@H](CC[C@@H]3C[C@@H](O)CC(=O)O3)[C@H]21 ; strain: 92US151 R5X4 clinical variant ; method: p24 ; result: <50 µM
CC(C)Nc1cccnc1N1CCN(C(=O)c2cc3cc(NS(C)(=O)=O)ccc3[nH]2)CC1 ; strain: JR-CSF ; method: p24 ; result: 0.0053 µM
CC(C)c1nc(CN(C)C(=O)N[C@H](C(=O)N[C@@H](Cc2ccccc2)C[C@H](O)[C@H](Cc2ccccc2)NC(=O)OCc2cncs2)C(C)C)cs1 ; strain: 006 ; method: p24 ; result: 0.0431 µM
Oc1ccccc1-c1c2nc(c(-c3ccccc3O)c3ccc([nH]3)c(-c3ccccc3O)c3nc(c(-c4ccccc4O)c4ccc1[nH]4)C=C3)C=C2 ; strain: LAV ; method: RT activity ; result: 3.1 µM
CC(=O)Oc1c(OC(C)=O)c2c3c(c(-c4c(C)cc5c(C(C)C)c(OC(C)=O)c(OC(C)=O)c6c5c4OC6OC(C)=O)c(C)cc3c1C(C)C)OC2OC(C)=O ; strain: LAV ; result: 0.93 µM

For reference, 10 entries again:

SMILES	strain	changes	method	result
C[C@@H]1O[C@@H](OC[C@H]2O[C@@H](Oc3c(-c4ccc(OS(=O)(=O)O)c(OS(=O)(=O)O)c4)oc4cc(OS(=O)(=O)O)cc(OS(=O)(=O)O)c4c3=O)[C@H](OS(=O)(=O)O)[C@@H](OS(=O)(=O)O)[C@@H]2OS(=O)(=O)O)[C@H](OS(=O)(=O)O)[C@H](OS(=O)(=O)O)[C@H]1OS(=O)(=O)O	ADAM R5	-	p24	4.5 µM
CCc1cc(NCc2nc3c(Cl)ccc(Cl)c3o2)c(=O)[nH]c1C	Clinical isolate (RT K103R D67N K70R K219Q)	RT-D67N K70R K103R K219Q	p24	<0.4 µM
CSCSc1nc(Cc2cc(C)cc(C)c2)c(C(C)C)c(=O)[nH]1	IIIB	-	p24	0.01 µM
Nc1ncnc2c1ncn2[C@H]1CC[C@](OCP(=O)(O)O)(C(F)(F)F)C1	LAI	-	MTT	8.4 µM
Nc1ccn([C@H]2CC[C@@H](CO)O2)c(=O)n1	-	-	p24 / ELISA / antigen	0.0876 µM
Nc1ccn([C@H]2CO[C@@H](CO)S2)c(=O)n1	HXB2D	-	p24	0.1 µM
Cc1cn([C@H]2C[C@H](N=[N+]=[N-])[C@@H](CO)O2)c(=O)[nH]c1=O	IIIB	-	p24 / ELISA	0.026 µM
CC(C)[C@H](NC(=O)c1ccc2ccccc2n1)C(=O)N[C@@H](Cc1ccccc1)[C@H](O)CN1CC[C@@H](OCc2ccncc2)C[C@H]1C(=O)NC(C)(C)C	Wg3522	-	p24	0.015 µM
Nc1nc(=O)n([C@@H]2CS[C@@H](CO)O2)cc1Cl	LAV	-	RT activity	100 µM
Nc1nc(=O)n([C@H]2CO[C@@H](CO)S2)cc1F	HXB2D (RT-K65R)	RT-K65R	p24	6.5 µM